Assay results taken from PMC8247773, “Benzohydrazide and Phenylacetamide Scaffolds: New Putative ParE Inhibitors” (Frontiers in Bioengineering and Biotechnology, 2021).

By UniProt entry, the sequences of proteins in these tests, tags left out.
UniProt P20083, whole entry: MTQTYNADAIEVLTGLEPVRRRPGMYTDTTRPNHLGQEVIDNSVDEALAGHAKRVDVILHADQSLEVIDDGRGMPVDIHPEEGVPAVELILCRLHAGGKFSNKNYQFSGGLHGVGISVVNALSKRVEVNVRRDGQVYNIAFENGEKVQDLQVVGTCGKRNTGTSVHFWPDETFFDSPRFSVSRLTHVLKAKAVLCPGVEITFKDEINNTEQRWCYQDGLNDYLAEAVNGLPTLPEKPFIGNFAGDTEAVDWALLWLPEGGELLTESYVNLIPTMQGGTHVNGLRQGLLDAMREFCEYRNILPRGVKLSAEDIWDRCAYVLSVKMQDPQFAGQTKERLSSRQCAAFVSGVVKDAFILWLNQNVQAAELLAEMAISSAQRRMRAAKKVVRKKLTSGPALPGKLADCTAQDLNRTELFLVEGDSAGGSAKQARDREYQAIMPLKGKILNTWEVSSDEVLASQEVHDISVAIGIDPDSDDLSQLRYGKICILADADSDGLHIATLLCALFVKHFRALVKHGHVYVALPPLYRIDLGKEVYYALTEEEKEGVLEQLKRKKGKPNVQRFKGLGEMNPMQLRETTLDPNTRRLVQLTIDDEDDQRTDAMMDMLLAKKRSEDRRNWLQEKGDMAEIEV
UniProt P0AFI2, whole entry partner: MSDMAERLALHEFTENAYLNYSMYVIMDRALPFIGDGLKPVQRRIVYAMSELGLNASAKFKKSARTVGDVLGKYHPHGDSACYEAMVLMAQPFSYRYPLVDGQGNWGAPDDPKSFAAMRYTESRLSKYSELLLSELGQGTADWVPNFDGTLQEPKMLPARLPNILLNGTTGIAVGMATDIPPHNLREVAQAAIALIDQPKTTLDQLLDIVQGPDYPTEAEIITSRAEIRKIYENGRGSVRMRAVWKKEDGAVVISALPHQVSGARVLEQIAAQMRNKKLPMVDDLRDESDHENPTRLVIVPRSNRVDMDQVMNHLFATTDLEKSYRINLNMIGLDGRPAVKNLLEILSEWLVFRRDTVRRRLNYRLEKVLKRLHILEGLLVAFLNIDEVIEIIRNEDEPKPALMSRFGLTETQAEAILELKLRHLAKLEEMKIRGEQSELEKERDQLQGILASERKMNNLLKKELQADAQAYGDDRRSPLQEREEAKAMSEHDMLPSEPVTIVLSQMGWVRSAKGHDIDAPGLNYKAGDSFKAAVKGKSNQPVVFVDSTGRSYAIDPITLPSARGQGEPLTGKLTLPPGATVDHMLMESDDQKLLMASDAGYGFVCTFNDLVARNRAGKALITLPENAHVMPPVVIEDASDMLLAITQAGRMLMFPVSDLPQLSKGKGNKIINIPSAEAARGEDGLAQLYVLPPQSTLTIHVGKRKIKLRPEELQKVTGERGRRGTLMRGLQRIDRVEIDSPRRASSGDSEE

Columns and labels:
[1] = system: Mycobacterium tuberculosis (NCIM 2984); settings: ref Yele et al., 2020, 2021; cited from earlier work
[2] = system: Pseudomonas aeruginosa (NCIM 2036); settings: ref Yele et al., 2020, 2021; cited from earlier work
[3] = system: Staphylococcus aureus (NCIM 5022); settings: ref Yele et al., 2020, 2021; cited from earlier work
[4] = molecular target: E. coli ParE enzyme (Escherichia coli, UniProt P20083); experiment: E. coli ParE ATPase enzyme inhibition assay (ProFoldin kit, malachite green); settings: ATPase activity, mean ± SD (n = 3)
[5] = system: Klebsiella pneumonia (NCIM 2706); settings: ref Yele et al., 2020, 2021; cited from earlier work
[6] = system: Escherichia coli (NCIM 2567); settings: ref Yele et al., 2020, 2021; cited from earlier work
[7] = system: Escherichia coli (NCIM 2065); experiment: Minimum bactericidal concentration (MBC); format: cell-based; settings: E. Coli (NCIM 2065)
[8] = system: Staphylococcus epidermis (NCIM 2493); settings: ref Yele et al., 2020, 2021; cited from earlier work
[9] = system: MRSA (ATCC43300); experiment: Antibacterial susceptibility test, microbroth dilution MIC; settings: mean ± SD
[10] = system: MRSA (NCIM 5021); experiment: as above; settings: mean ± SD
[11] = system: Escherichia coli (NCIM 2065); experiment: as above; settings: E. Coli (NCIM 2065); mean ± SD

COc1ccc(NNC(=O)CSc2nc3ccccc3s2)cc1
Minimum inhibitory concentration (MIC) M. t [1]: 2.967 | Minimum inhibitory concentration (MIC) P. a [2]: 7.99 | Minimum inhibitory concentration (MIC) S. a [3]: 0.71 | IC50 against E. coli ParE enzyme [4]: 2.78 µg/mL (≈ 8.05 µM) | Minimum inhibitory concentration (MIC) K. p [5]: 3.25 | Minimum inhibitory concentration (MIC) E. c [6]: 8.20 | MBC [7]: 4.59 ± 0.26 µg/mL (≈ 13.3 µM) | Minimum inhibitory concentration (MIC) S. e [8]: 0.95 | Minimum inhibitory concentration [9]: 4.92 ± 0.05 µg/mL (≈ 14.2 µM) | Minimum inhibitory concentration [10]: 4.94 ± 0.05 µg/mL (≈ 14.3 µM) | Minimum inhibitory concentration [11]: 4.70 ± 0.41 µg/mL (≈ 13.6 µM)

In brackets after ≈: the same amount, converted by molar mass.
